A mixed list of measured activities; the numbers were collected in NIAID ChemDB.

Shared fields: growth or infection tests; organism: Candida albicans

An empty or dashed field is not shown. Rows are shuffled and stem from different studies. Percent inhibition refers to the dose given; in toxicity tests it is the harm to the cells. ECn: concentration that inhibits the pathogen or its effect by n%. A number after MIC or MFC names an inhibition level or a share of isolates.

compound,dose,measure,conditions,strain,read by,result
C[C@@H](N1CCN(Cc2cn(Cc3ccc(F)cc3)c3c(Cl)cccc23)CC1)[C@](O)(Cn1cncn1)c1ccc(F)cc1F,,MIC80,,ATCC MYA-1003,resazurin,16 µg/mL
CCC(C)CC(C)CCCCCCCCC(=O)N[C@H]1C[C@@H](O)[C@H](NCCN)NC(=O)[C@@H]2[C@@H](O)CCN2C(=O)[C@H]([C@H](O)CCN)NC(=O)[C@H]([C@H](O)[C@@H](O)c2ccc(O)cc2)NC(=O)[C@@H]2C[C@@H](O)CN2C(=O)[C@H]([C@@H](C)O)NC1=O,,MIC,pH 5,10 isolates,broth dilution,0.03 µg/mL
Clc1ccc(COc2ccc(C(c3nccc4ccccc34)n3ccnc3)cc2)c(Cl)c1,,Mean MIC,,16 strains,,≥256 µg/mL
Cc1nn(-c2ccccc2)c2nc3nc4c(c(N)c3c(-c3ccc(Cl)cc3)c12)CCCCC4,,MIC100,,ATCC 10231,broth dilution / absorbance,125 µg/mL
Cc1ccc(-n2cc(C(C)(C)O)nn2)cc1C,2048 µg/mL,inhibition,,URM 4384,broth dilution,0%
Oc1ccc2c(c1)CCc1ccc(cc1)Oc1cc(ccc1O)CCc1cccc(O)c1-2,,MIC80,,SC5314,broth dilution,16 µg/mL
NCCCC[C@H](NC(=O)[C@@H](N)CCCCN)C(=O)N[C@@H](CCC(N)=O)C(=O)N[C@@H](CCCN=C(N)N)C(=O)O,200 µM,inhibition,,ATCC 10231,,6%
Cc1ccc(-c2c3c(N)c4c(nc3nc3c2c(C)nn3-c2ccccc2)CCCC4)cc1,,MIC50,,CCC 127,broth dilution / absorbance,31.2 µg/mL
Clc1ccccc1COc1ccc(C(c2nccc3ccccc23)n2ccnc2)cc1.O=[N+]([O-])O,,MIC90,,16 strains,,≥256 µg/mL
C=CCc1ccc(OC)c(OC)c1,,MIC90,,2920,turbidity,350 µg/mL
COC(=O)[C@H]1[C@@H]2C[C@@H](O[C@@H]3O[C@H](C)[C@@H](O)[C@H](N)[C@@H]3O)/C=C/C=C/C=C/C=C/C=C/C=C/C=C/[C@H](C)[C@@H](O)[C@H](C)[C@H](C)OC(=O)C[C@H](O)C[C@H](O)[C@@H](O)CC[C@H](O)C[C@H](O)C[C@](O)(C[C@@H]1O)O2,,EC90,pH 6,15 isolates,broth dilution,2 µg/mL
Fc1ccccc1COc1ccc(C(c2cccc3ccccc23)n2ccnc2)cc1.O=[N+]([O-])O,,Mean MIC,,17 strains,,≥256 µg/mL
CC(C)(O)c1cn(-c2ccc3ccccc3c2)nn1,2048 µg/mL,inhibition,,URM 4819,broth dilution,0%
N=C(N)c1ccc2nc(-c3ccc(-c4nc5ccc(C(=N)N)cc5[nH]4)[nH]3)[nH]c2c1,,Geometric mean MFC,,21 strains,,1.47 µg/mL
C[C@H]1[C@H](O)[C@@H](C)/C=C/C=C/C=C/C=C/C=C/C=C/C=C/[C@H](O[C@@H]2O[C@H](C)[C@@H](O)[C@H](N)[C@@H]2O)C[C@@H]2O[C@](O)(C[C@@H](O)C[C@@H](O)CC[C@H](O)[C@@H](O)C[C@@H](O)CC(=O)O[C@H]1C)C[C@H](O)[C@H]2C(=O)O,,MFC50,,Fluconazole-resistant 4 isolates pooled,,0.5 µg/mL
C[C@@H](N1CCN(Cc2cn(Cc3ccc(F)cc3F)c3c(C#N)cccc23)CC1)[C@](O)(Cn1cncn1)c1ccc(F)cc1F,,MIC80,,ATCC MYA-1003,resazurin,128 µg/mL
Fc1ccc(COc2ccc(C(c3cccc4ccccc34)n3ccnc3)cc2)c(F)c1.O=[N+]([O-])O,,Mean MIC,,16 strains,,≥256 µg/mL
C=CCSS(=O)CC=C,,MIC90,,Clinical Isolate 3109,broth dilution,3.13 µg/mL
CC(C)(O)c1cn(-c2cccc3ccccc23)nn1,2048 µg/mL,inhibition,,URM 4606,broth dilution,0%
Cc1ccc(-c2c3c(N)c4c(nc3nc3c2c(C)nn3-c2ccccc2)CCCCC4)cc1,,MIC50,,CCC 126,broth dilution / absorbance,62.5 µg/mL
Nc1[nH]c(=O)ncc1F,,MIC,pH 5,10 isolates,broth dilution,0.25 µg/mL
Cc1ccc(-c2c3c(N)c4c(nc3nc3c2c(C)nn3-c2ccccc2)CCC4)cc1,,MIC50,,CCC 128,broth dilution / absorbance,31.2 µg/mL
Fc1ccccc1COc1ccc(C(c2nccc3ccccc23)n2ccnc2)cc1,,MIC90,,16 strains,,≥256 µg/mL
C[C@@H](c1ncncc1F)[C@](O)(Cn1cncn1)c1ccc(F)cc1F,,MIC,pH 6,10 isolates,broth dilution,0.25 µg/mL
C[C@@H](N1CCN(Cc2cn(Cc3ccc(F)cc3F)c3cc(N=[N+]=[N-])ccc23)CC1)[C@](O)(Cn1cncn1)c1ccc(F)cc1F,,MIC80,,ATCC MYA-1003,resazurin,>128 µg/mL
Fc1ccc(COc2ccc(C(c3ccc4ccccc4c3)n3ccnc3)cc2)cc1.O=[N+]([O-])O,,Mean MIC,,16 strains,,≥256 µg/mL
CC(C)(O)c1cn(-c2ccc([N+](=O)[O-])cc2)nn1,2048 µg/mL,inhibition,,URM 3719,broth dilution,0%
OC(CN1CCN(c2ccc(OCc3ccncc3)cc2)CC1)(Cn1cncn1)c1ccc(F)cc1F,,MIC80,,4,,≤0.031 µg/mL
C[C@@H](N1CCN(Cc2cn(Cc3ccc(C(F)(F)F)cc3)c3ccccc23)CC1)[C@](O)(Cn1cncn1)c1ccc(F)cc1F,,MIC80,,ATCC 64548,resazurin,0.125 µg/mL
COc1ccc(-c2c3c(N)c4c(nc3nc3c2c(C)nn3-c2ccccc2)CCC4)cc1,,MIC100,,ATCC 10231,broth dilution / absorbance,250 µg/mL

For reference, 4 entries again:

compound | dose | measure | conditions | strain | read by | result
C[C@@H](N1CCN(Cc2cn(Cc3ccc(F)cc3F)c3c(C#N)cccc23)CC1)[C@](O)(Cn1cncn1)c1ccc(F)cc1F |  | MIC80 |  | ATCC MYA-1003 | resazurin | 128 µg/mL
CC(C)(O)c1cn(-c2ccc([N+](=O)[O-])cc2)nn1 | 2048 µg/mL | inhibition |  | URM 3719 | broth dilution | 0%
CCC(C)CC(C)CCCCCCCCC(=O)N[C@H]1C[C@@H](O)[C@H](NCCN)NC(=O)[C@@H]2[C@@H](O)CCN2C(=O)[C@H]([C@H](O)CCN)NC(=O)[C@H]([C@H](O)[C@@H](O)c2ccc(O)cc2)NC(=O)[C@@H]2C[C@@H](O)CN2C(=O)[C@H]([C@@H](C)O)NC1=O |  | MIC | pH 5 | 10 isolates | broth dilution | 0.03 µg/mL
Cc1ccc(-c2c3c(N)c4c(nc3nc3c2c(C)nn3-c2ccccc2)CCCCC4)cc1 |  | MIC50 |  | CCC 126 | broth dilution / absorbance | 62.5 µg/mL